In the supplement of paper PMC9931576:
Human monoclonal antibodies against the spike receptor-binding domain (heavy:light variable regions). IC50 against pseudoviruses bearing the spike of naturally observed variants; lower = stronger; >10 µg/ml means not reached at the top dose. No active / inactive call. The stated detection limit is 0.0005 µg/ml; values near or below 0.001 µg/ml lie at the floor of the assay.

B1: BD55-6509 (protein)
chain 1: EVQLVQSGAEVKKPGESLKISCKASGYIFSTDWIGWVRQMPGKGLEWMGIIWPDDSDTIYSPSFQGQVTFSADKSISTAYLQLNSLKASDSALYYCARRIGATYYFDYWGQGTRVTVSS
chain 2: QSALTQPASVSGSPGQSITISCTGTSSDVGGYNYVSWYQQHPGRAPKLVIYDVSNRPSGVSPRFSASKSGNTASLTISGLQADDEADYFCTSYTSSTTLWVFGGGTKLTVL
B2: BD55-6474 (protein)
chain 1: QVQLVESGGGVVQPGRSLRLSCAASGFTFSRYGMHWVRQAPGKGLEWVAVFSYDGSENHYADSVKGRFTISRDTSKNTLYLQMNSLRADDTAVYYCAKGPLYASGWYEGFGDYWGQGTLVTVSS
chain 2: DIQMTQSPSAMSASVGDRVTITCRASQGISNSLAWFQQKPGKVPKRLIYAASSLESGVPSRFSGSGSGTEFTLTISSLQPEDLATYYCLQHNSYPYTFGQGTKLEIK
B3: BD55-6473 (protein)
chain 1: EVRLVESGGGLVKPGGSLRLSCAASGFSFSDAWMTWVRQAPGKGLEWVGHIKSEISGGTTDYAAPVKGRFTISRDDSKDILYLQMNSLKTEDTAMYYCVSSDIWRYYHYGMDVWGRGTTVTVSS
chain 2: DIQMTQSPSTLSTSVGDRVTITCRASQSISTWLAWYQQKPGKAPKLLIYKASTLESGVPSRFSGSGSGTEFTLTISGLQPDDFATYYCQQYNTYPLTFGGGTKVQIK
B4: BD55-6481 (protein)
chain 1: QVQLVQSGAEVKKPGASVKVACKASGYTFTSHDINWVRQATGQGLEWMGWMNPNSGNTGYAQKFQGRVTMTRNTSISTAYMELSSLRSEDTAVYYCAAYSGSGRHYPDYYYGLDVWGQGTTVTVSS
chain 2: DIQMTQSPSSLSASVGDRVTITCRASQSISDYLNWYQQKPGKAPKVLIYAATSLLSGVPSRFIGRGSGTDFTLTISSLQPEDFATYYCQQSYSTPPTFGQGTRLEIK
B5: BD55-6478 (protein)
chain 1: QLRLQESGPGLVKPSETLSLTCTVSDDSISSSNYYWGWVRQPPGKGLEWIGTIYYTGVTYYSPSLKSRVTMSVDTSRNQFSLTLTSVTAADTALYYCARHLGGDREESLTSSWYDSWTGGHFDLWGRGSRVTVSS
chain 2: QSVLTQPPSVSGAPGQRVTISCTGSSSNIGASYDVHWYQQLPGTAPKLLIYGNNNRPSGVPDRFSGSKSGTSASLAITRLQAEDEADYYCQSYDSNMSGWVFGGGTKLTVL
B6: BD55-6499 (protein)
chain 1: EVQVVESGGGLVKPGGSLRLSCAASGFTSSDAWMSWVRQAPGKGLEWIGRIKSEVGGGTRDYAAPVKGRFIISRDDSENTLYLQMNSLKAEDTAVYYCTTAVNIVITVEPDDAFDTWGQGTMVTVSS
chain 2: SSELTQDPAVSVALGQTVRMTCQGDSLRSYYASWYQQKPGQAPRLVFYGKNNRPSGIPDRFSGSSSGHTASLTITGAQAEDEADYFCNSRDSSGNQFVFGSGTKVTVL

target: SARS-CoV-2 Omicron BA.1 spike pseudovirus; assay: pseudovirus neutralization IC50; higher = weaker neutralization
Experimental: (§1)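 Single-round VSV luciferase pseudovirus mixed with antibody dilutions for 1 h and put on Huh-7 cells for about a day; IC50 from the dose curve.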

Binder | pseudovirus neutralization IC50 [µg/mL]
B1 | > 10
B2 | > 10
B3 | > 10
B4 | > 10
B5 | 0.29
B6 | > 10

target: SARS-CoV-2 Omicron BA.2 spike pseudovirus; assay: as above
Experimental: as §1

Binder | pseudovirus neutralization IC50 [µg/mL]
B1 | > 10
B2 | > 10
B3 | > 10
B4 | > 10
B5 | > 10
B6 | > 10

target: SARS-CoV-2 Omicron BA.2.75 spike pseudovirus; assay: as above
Experimental: as §1

Binder | pseudovirus neutralization IC50 [µg/mL]
B1 | > 10
B2 | > 10
B3 | > 10
B4 | > 10
B5 | > 10
B6 | > 10

target: SARS-CoV-2 Omicron BA.5 spike pseudovirus; assay: as above
Experimental: as §1

Binder | pseudovirus neutralization IC50 [µg/mL]
B1 | > 10
B2 | > 10
B3 | > 10
B4 | > 10
B5 | > 10
B6 | > 10

target: SARS-CoV-2 Omicron BQ.1.1 spike pseudovirus; assay: as above
Experimental: as §1

Binder | pseudovirus neutralization IC50 [µg/mL]
B1 | > 10
B2 | > 10
B3 | > 10
B4 | > 10
B5 | > 10
B6 | > 10

target: SARS-CoV-2 Omicron XBB spike pseudovirus; assay: as above
Experimental: as §1

Binder | pseudovirus neutralization IC50 [µg/mL]
B1 | > 10
B2 | > 10
B3 | > 10
B4 | > 10
B5 | > 10
B6 | > 10

target: SARS-CoV-2 early D614G spike pseudovirus; assay: as above
Experimental: as §1

Binder | pseudovirus neutralization IC50 [µg/mL]
B1 | > 10
B2 | > 10
B3 | > 10
B4 | > 10
B5 | 0.0249
B6 | > 10
